Results: paper PMC7894301
pKd: −log10 of the molar value.

Chains of the proteins cited; added tags and fusions are not shown. Residues count along the entry.
UniProt P02786, 121-760: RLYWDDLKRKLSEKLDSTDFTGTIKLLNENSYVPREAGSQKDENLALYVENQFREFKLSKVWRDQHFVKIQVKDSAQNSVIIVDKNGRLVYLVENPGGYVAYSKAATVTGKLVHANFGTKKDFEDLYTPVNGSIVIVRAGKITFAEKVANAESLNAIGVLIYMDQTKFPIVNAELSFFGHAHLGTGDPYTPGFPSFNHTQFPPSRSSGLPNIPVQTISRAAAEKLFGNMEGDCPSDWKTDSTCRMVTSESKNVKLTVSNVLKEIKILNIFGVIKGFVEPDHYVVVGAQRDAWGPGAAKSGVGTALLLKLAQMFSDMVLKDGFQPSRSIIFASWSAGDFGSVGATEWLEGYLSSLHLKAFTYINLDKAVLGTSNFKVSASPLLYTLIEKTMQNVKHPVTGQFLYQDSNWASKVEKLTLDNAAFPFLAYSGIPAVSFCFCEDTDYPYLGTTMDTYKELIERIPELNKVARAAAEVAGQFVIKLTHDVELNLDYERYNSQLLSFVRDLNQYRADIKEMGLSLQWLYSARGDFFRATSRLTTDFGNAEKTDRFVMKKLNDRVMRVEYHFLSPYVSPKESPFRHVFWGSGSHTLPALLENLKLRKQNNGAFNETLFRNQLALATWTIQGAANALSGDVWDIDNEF

Molecular target: native Machupo virus glycoprotein 1 (residues 84-244), yeast surface displayed (Machupo virus) (UniProt Q8AZ52)
Assay: flow cytometry on cells

“solubilized ectodomain of human transferrin receptor 1 (amino acids 121 to 760), biotinylated (from UniProt P02786 121-760)” showed a pKd of 5.82.
